Measurements as given in patent US8221975B2, “Method for detection of microorganism” (Morinaga Milk Industry Co., Ltd., priority 2007, dated 2012).

Columns and labels:
[1] = system: Enterobacter sakazakii ATCC 6538P; experiment: ompA real-time PCR (469 bp) of EMA-treated Enterobacter sakazakii, Ct value; assay type: cell-based; conditions: single-step treatment with 25 μg/ml EMA
[2] = system: Salmonella enteritidis IIP 604; experiment: invA real-time PCR (378 bp) of EMA-treated Salmonella, Ct value; assay type: cell-based
[3] = single-step treatment with 25 μg/ml EMA
[4] = single-step treatment with 100 μg/ml EMA

CC[n+]1c(-c2ccccc2)c2cc(N=[N+]=[N-])ccc2c2ccc(N)cc21 [EMA, ethidium monoazide]
detection limit of live cells lower than that in the multi-step treatment [1]: about 2 log10 cells/ml
Ct value in live cells larger than in multi-step treatment (EMA 10/10 μg/ml) ([1]; live cells): about 5.0
detection limit of live cells lower compared with that in the multi-step treatment [2, 3]: about 1 log10 cells/ml
Ct value in live cells larger than in multi-step treatment (EMA 10/10 μg/ml) [2, 3]: about 2.2
detection limit of live cells lower compared with that in the multi-step treatment [2, 4]: ~4 log10 cells/ml
Ct value in live cells larger than in multi-step treatment (EMA 10/10 μg/ml) [2, 4]: ~1.7
